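Phenotypic screen: M. tuberculosis growth, cholesterol and DPPC medium, 4 days; the read-out is not stated. Concentration: 500 µM. Higher reads as more growth inhibition (inferred: compounds with an IC50 in retests scored well above the rest). Of about 18,000 compounds tested this way, about 900 (5%) reached 50% or more in at least one test.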

Each number is a percent effect as filed. The controls that fix the scale are not given in the record; negative values are as filed. Many other results are left out here, so strong results are more common than in the screen.

structure | effect
Cn1nnnc1SCCNCc1ccc(Br)cc1 | 73.91%
CC(C)(C)OC(=O)N1CCN(C2CCC(N)CC2)CC1 (stereo not given) | 56.48%
CCc1ccc(CN(C)C(=O)c2cccn2C)nc1 | 64.43%
COCC(C)(CCO)NCc1nc(C)no1 (stereo not given) | 3.452%
Cn1cncc1CN1CC[C@@]2(O)CCCC[C@H]2C1 | -9.878%
O=C(NC1=NCCS1)c1cc(Br)c[nH]1 | 14.38%
NCCc1nc2c(s1)CCCC2 | 11.99%
CCn1cc(C(=O)OCCC2CCCO2)cn1 (stereo not given) | 34.75%
COc1cc(C(=O)Nc2nnc[nH]2)cc(Cl)c1OC | -3.916%
COc1cc(OC)c(N(CCO)CCO)cc1Cl | 10.5%
CCc1nn(C)c(CC)c1S(=O)(=O)N1CCC(N)C1 (stereo not given) | -12.68%
O=S(=O)(CCN1CCCC1)c1ccccc1 | 21.65%
Cc1cc(C(=O)NCc2cccc(F)c2)no1 | 53.84%
Cc1noc(C)c1CC(=O)NCC1CCOC1 (stereo not given) | 1.972%
CN(CC(N)=O)C(=O)c1csc(-c2ccc(F)cc2)n1 | -9.434%
O=S(=O)(C1CC1)N1CCC(Nc2ccccn2)CC1 | -9.664%
CNc1nc(C(=O)N2CC(C)(C)[C@@](C)(O)C2)cs1 | 6.077%
O=C(NC(c1ccccn1)C(F)(F)F)C1CCOCC1 (stereo not given) | 0.06998%
COc1ccc(C2CCN(CC(=O)NC(N)=O)C2)cc1 (stereo not given) | 32.73%
CCCNC(=O)C1CCCNC1 (stereo not given) | -0.6842%
COCCNCc1ccc(OC)c(OC)c1OC | -5.017%
OC1CN(Cc2ccccc2)C1 | 12.2%
CC(C)Cc1nc(COCc2ncc[nH]2)no1 | 2.798%
CC(=O)c1c(F)cccc1N1CCOCC1 | 51.26%
CC(=O)Nc1nc(COc2ccc(C)cn2)cs1 | 82.97%
C(Cc1noc(C2CNC2)n1)OCC1CC1 | 107.5%
NC(=O)C1CCc2ccccc21 (stereo not given) | -30.6%
Cc1cc(=O)n(CCN(C)CC2(C)COC2)c(=O)[nH]1 | -4.368%
CS(=O)(=O)NCc1nc(CCc2ccccc2)no1 | 25.16%
Cc1ccc2[nH]c(CN)nc2c1C | 46.86%
CCn1ccc(C(=O)NC(C)c2ccccc2)n1 (stereo not given) | 74.57%
Nc1nc(SCc2ccccc2F)n[nH]1 | 10.8%
CC(=O)c1ccc(C(=O)NC(C)c2n[nH]c(=O)[nH]2)s1 (stereo not given) | 9.708%
COCCCOc1ccc(C)cc1S(=O)(=O)N(C)C | 10.76%
NCC(=O)Nc1ccc(Cl)c(F)c1 | 68.45%
CN1Cc2cc(-c3csc(N)n3)ccc2NC1=O | 28.11%
Cc1cnn(CCNCc2nccn2C)c1 | 70.25%
NCc1coc(-c2cccs2)n1 | 71.56%
COc1ncccc1C(=O)N1CCc2[nH]ncc2C1 | -11.17%
O=C1NCCCC12CCN(C/C=C/c1ccccc1)C2 (stereo not given) | 10.66%
CN(C)S(=O)(=O)N1CCCC1c1ccsc1 (stereo not given) | 32.64%
COc1cccc(-c2ccc(CNS(N)(=O)=O)cc2)c1 | 93.15%
N#Cc1ccccc1OCCNCC1CCCO1 (stereo not given) | 19.76%
CCS(=O)(=O)NCCOc1ccc2c(c1)OCO2 | 54.58%
Cc1ccc(F)cc1C(=O)OCCCNC(N)=O | 15.66%
CCC1(O)CN(S(=O)(=O)c2ncn(C)c2Cl)C1 | -8.273%
Cc1ccc(NC(=O)Cn2ccnc2)cc1 | 69.96%
CSCc1noc(CN2CCCC(N(C)C)CC2)n1 (stereo not given) | -21.23%
NC(=O)c1ccsc1NC(=O)CCN1CCCCC1 | 35.99%
COc1ccc(Br)c(CN)c1 | 55.1%
NCCNS(=O)(=O)c1ccc(F)c(C(F)(F)F)c1 | 45.71%
NCc1ccc(CN2CCOCC2)o1 | -15.22%
CN(C)C(=O)C1CSc2ccccc21 (stereo not given) | 37.75%
NCc1ccncc1OCC(F)(F)F | 70.97%
NC(=O)c1c[nH]cn1 | -9.752%
Cc1ccc(C(=O)NCCc2cncn2C)n1C | -7.228%
Cc1ccc(F)cc1C(=O)NCC1(O)CCNC1 (stereo not given) | -4.189%
CC(C)C(N)c1nnc2n1CCC2 (stereo not given) | -7.447%
OCC1CCN(CCc2ccccc2)C1 (stereo not given) | 65.49%
CC(CO)N(C)C(=O)c1cccc2cc[nH]c12 (stereo not given) | -9.535%
O=C(NCCOCc1ccc(Cl)cc1)C1CNCCO1 (stereo not given) | 27.05%
CC(=O)N1N=C(c2ccccn2)CC1c1ccccc1 (stereo not given) | -1.725%
CC(C)(C)C(=O)CCN1CCCCC1 | 90.86%
CN1CC(Nc2ccc(F)cc2C#N)CCC1=O (stereo not given) | -21.2%
CCNc1ccc(C(F)(F)F)cn1 | 1.592%
O=C1NC(=O)c2cc(C(F)(F)F)ccc21 | -2.612%
Cc1cc2nc(CN)[nH]c2cc1C | 50.31%
CC(C#N)Sc1ccc(S(=O)(=O)N2CCCC2)cn1 (stereo not given) | -5.251%
Cc1ccc(-c2noc(CNS(C)(=O)=O)n2)cc1 | 72.04%
CSCCCNC(=O)c1ccc(CN(C)C)o1 | 2.619%
COCC(C)NC(=O)CSc1nc(N)c2ccsc2n1 (stereo not given) | 6.297%
CCS(=O)(=O)c1ccc(S(=O)(=O)N2CC[C@H](N)C2)cc1 | 14.82%
COCCN(Cc1ccco1)C(=O)CCn1cccn1 | -8.39%
CCc1nnc(SCC(=O)Nc2cc(C)nn2C)[nH]1 | -17.45%
NCc1cccc(-c2cccnc2)c1 | 23.4%
CN1C(=O)[C@H]2CN(Cc3cccc(Br)c3)C[C@H]2C1=O | 23.09%
Clc1ccc(CN2CCNCC2)nc1 | 4.667%
CC(=O)N(CC(=O)N1CCCCC1)c1ccc(C)cc1 | 5.658%
O=C(Cc1ccc(Cl)cc1Br)NC(CO)CO | 4.397%
CNC(=O)c1noc(CN(C)CC2CCC2)n1 | 24.14%
CN(C)CCNC(N)=O | -2.058%
CO[C@H]1CNCC1NC(=O)Cc1ccc(F)cc1Cl (stereo not given in full) | -7.525%
c1ccc(NCCNc2ccccn2)cc1 | 72.32%
CCN1CCN(Cc2nc(-c3ccccc3)no2)CC1 | 25.54%
CCc1nc(C2(N)CCCC2)no1 | 8.345%
O=C1CN(C(=O)Nc2cc(Cl)ccc2F)CCN1 | 17.43%
CS(=O)(=O)N(CC(=O)N1CCCC1)c1ccc(Cl)cc1 | 26.77%
O=C1NC(=O)c2cc(F)c(F)cc21 | -1.802%
CCC1(CO)CCCN(C(=O)c2ccc(COC)s2)C1 (stereo not given) | 57.01%
CSCCN1CCN(C(=O)c2cnc[nH]2)CC1 | -9.411%
COc1cccc(N2CCC(N)C2)c1 (stereo not given) | 66.9%
O=S(=O)(CCN1CCOCC(O)C1)c1ccccc1 (stereo not given) | 30.65%
COC(=O)[C@H](C)NC(=O)c1noc2c1CCCCC2 | 80.16%
CNS(=O)(=O)c1ccc2c(c1)CCN2C(C)=O | 12.01%
COc1cn(-c2ccccc2)nc1C(=O)NCC(C)C | 69.07%

12 of the entries, repeated:

structure,effect
CCN1CCN(Cc2nc(-c3ccccc3)no2)CC1,25.54%
CN(C)CCNC(N)=O,-2.058%
CN(C)S(=O)(=O)N1CCCC1c1ccsc1 (stereo not given),32.64%
COc1cccc(-c2ccc(CNS(N)(=O)=O)cc2)c1,93.15%
NC(=O)c1c[nH]cn1,-9.752%
COc1cc(C(=O)Nc2nnc[nH]2)cc(Cl)c1OC,-3.916%
CCS(=O)(=O)NCCOc1ccc2c(c1)OCO2,54.58%
COc1cccc(N2CCC(N)C2)c1 (stereo not given),66.9%
CSCCN1CCN(C(=O)c2cnc[nH]2)CC1,-9.411%
Cn1cncc1CN1CC[C@@]2(O)CCCC[C@H]2C1,-9.878%
CNc1nc(C(=O)N2CC(C)(C)[C@@](C)(O)C2)cs1,6.077%
CCc1nnc(SCC(=O)Nc2cc(C)nn2C)[nH]1,-17.45%

Data taken from ChEMBL document CHEMBL3988442, “University of Dundee, Small-Polar-MMV Screening Library” (2021).